For the series, the system named is Vero cells. The series is classed as cell-based. As to conditions: Vero CC50 versus B. microti IC50. The method, then: The mycoplasma-free Vero cell line (ATCC-CCL-81, immortalized cells) was cryopreserved in liquid nitrogen with DMSO at the National Key Laboratory of Agricultural Microbiology, Huazhong Agricultural University, China. The cytotoxicity of compounds TA and TB was assessed in Vero cells using the CCK-8 assay (Vazyme). Briefly, Vero cells (100 µL, 10,000 cells/well) were cultured in Dulbecco’s modified Eagle medium (DMEM) supplemented with 10% fetal bovine serum (FBS) and 100 U/mL penicillin–streptomycin at 37 ℃ with 5% CO2 for 24 h. The cells were then treated with varying concentrations of TA (2000, 1000, 500, 250, and 125 μM) or TB (800, 400, 200, 100, and 50 μM) for 72 h. After the treatment period, the medium containing TA and TB was replaced with fresh medium. Subsequently, 10 µL of CCK-8 solution was added to each well, and the plate was incubated for an additional 3 h. Absorbance was measured at 450 nm using a multifunctional enzyme marker (Envision, PE, USA). Stock solutions of TA and TB were prepared at a concentration of 100 mM in absolute ethanol. Doxorubicin hydrochloride at 40 µM served as the positive control, while 2% absolute ethanol served as the negative control. The concentration required to achieve 50% cytotoxicity (CC50) values were calculated using GraphPad Prism 8, and all cytotoxicity assays were performed in triplicate.

The values below come from article PMC11847361, “Design and screening of novel molecular compounds targeting lactate dehydrogenase of Babesia microti” (Parasites & Vectors, 2025).

Turning to `O=C(O)c1ccccc1Cc1ccc2ccc(O)cc2c1` [TA], the “SI (selection index)” value worked out at 8.5. Then `O=C(O)c1cccc(-c2ccc3ccc(O)cc3c2)c1` [TB], with 3.9.
